Assay results as given in patent US20240408194A1, “DNA ORIGAMI SUBUNIT VACCINE FOR PREVENTION OF SARS-CoV-2 VARIANT INFECTION” (ARIZONA BOARD OF REGENTS ON BEHALF OF ARIZONA STATE …, published 2024).

Target: spike P1

B1: LCB1 protein (designed binder)
chain: DKEWILQKIYEIMRLLDELGHAEASMRVSDLIYEFMKKGDERLLEEAERLLEEVER
Question: With B1 as the binder, how does the Kd read?
Answer: 0.75 nM
